The filed quantity is “Percent Effect” (%).
How 0% and 100% were set is not recorded. Most values in the screen are low, and negative values occur.
This is part of a subset picked to be rich in strong results.

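Phenotypic screen: M. tuberculosis growth, cholesterol and DPPC medium, 4 days; the read-out is not stated. Compounds at 500 µM. The record gives no direction; compounds that gave an IC50 in retests scored well above the rest, so higher reads as more growth inhibition. Of about 18,000 compounds tested this way, about 900 (5%) reached 50% or more in at least one test.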

| # | structure | Percent Effect |
|---|---|---|
| 1 | `CN(CC(N)=O)C(=O)c1ccc(-c2ccco2)[nH]c1=O` | -11.98% |
| 2 | `Cc1csc(NC(=O)CSCc2nnc(C)o2)n1` | -28.74% |
| 3 | `OCCc1nccs1` | -1.264% |
| 4 | `CN(CCn1cccn1)CC(=O)Nc1ccc(Br)cn1` | 32% |
| 5 | `O=C(Cc1cccc(O)c1)NCCCN1CCOCC1` | 10.26% |
| 6 | `CCN(Cc1ccoc1)C(=O)C1(C)CCCNC1` (stereo not shown) | 5.576% |
| 7 | `CN1CCN(C(=O)c2cc3ccccc3o2)CC1` | 2.329% |
| 8 | `Cc1nonc1CC(=O)N1CCCC(c2ncc[nH]2)C1` (stereo not shown) | 3.902% |
| 9 | `CCCc1cc(C(N)=O)ccn1` | 5.832% |
| 10 | `Cn1cc(C(=O)NC2CCCOc3ccccc32)nn1` (stereo not shown) | -1.92% |
| 11 | `Cc1ccc(C(=O)NCCSc2nncn2C)s1` | -4.461% |
| 12 | `CN(C)C(=O)CCCn1ccc(N)n1` | 2.415% |
| 13 | `CCc1ccc(S(=O)(=O)N2CC[C@@H](N)C2)cc1CC` | 52.4% |
| 14 | `COCCN1CCCC(NC2CCOCC2)C1` (stereo not shown) | -4.46% |
| 15 | `CN(C)c1cccc(C(=O)Nc2cnns2)c1` | 25.88% |
| 16 | `CCCOc1cccc(C(=O)N(C)CC(N)=O)c1` | 12.17% |
| 17 | `COCC1(C(=O)NC(Cn2ccnc2)C(C)(C)C)CC1` (stereo not shown) | 9.35% |
| 18 | `CCc1nnc(C2CNCCO2)o1` (stereo not shown) | 9.757% |
| 19 | `NCC(=O)N1CCCC(CCc2c(F)cccc2F)C1` (stereo not shown) | 84.15% |
| 20 | `O=S(=O)(NCCC(O)c1ccccc1)c1c[nH]cn1` (stereo not shown) | 4.613% |
| 21 | `CCN(CC)CCCNC(=O)c1ccccc1` | -9.281% |
| 22 | `CC(CC(C)(C)O)NCCSc1cnn[nH]1` (stereo not shown) | 5.825% |
| 23 | `CN1CCCN(C(=O)NC2CCCC2)CC1` | 15.27% |
| 24 | `CCc1cc(C(=O)N[C@H]2CC[C@@H](N)C2)cc(=O)[nH]1` | -21.81% |
| 25 | `CC(C)CN1C(=O)C(N)c2ccccc21` (stereo not shown) | 73.41% |
| 26 | `CC(C(N)=O)N1CCC(=Cc2ccccc2)CC1` (stereo not shown) | 90.35% |
| 27 | `CC(CO)(NC(=O)NCc1ccncc1)C1CC1` (stereo not shown) | -4.853% |
| 28 | `COCc1nn(Cc2cccc3cccnc23)c(=O)o1` | 72.34% |
| 29 | `CC(C)Sc1nc(-c2ccccn2)no1` | 72.26% |
| 30 | `COc1ccc(CC(=O)N2CCCNCC2)cc1` | 8.089% |
| 31 | `NCc1cccc(-c2cccnc2)c1` | 23.4% |
| 32 | `COCCC(C)NC(=O)Nc1ccc(C#N)cc1` (stereo not shown) | 59.05% |
| 33 | `O=C(CN1CCC=C(F)C1)Nc1cccc(F)c1` | 53.18% |
| 34 | `NCCCn1cc(Cl)cn1` | 19.84% |
| 35 | `CC(C)Oc1ccc(CN)cc1` | 67.46% |
| 36 | `Cn1ccc(CNC(=O)NCC2CC2)c1` | 34.58% |
| 37 | `NCc1ccc(OC2CCCC2)nc1` | -9.115% |
| 38 | `Cc1ccc(CN2CC(O)(CC#N)C2)s1` | -13.54% |
| 39 | `CNCCCNC(=O)c1ccc(C(C)=O)cc1` | 7.002% |
| 40 | `Nc1nccnc1C(=O)NCc1ccccc1` | 22.46% |
| 41 | `c1ccc(N2CCCN(c3ncccn3)CC2)nc1` | 1.62% |
| 42 | `NCc1ncn(-c2ccccc2)n1` | 6.51% |
| 43 | `CNS(=O)(=O)c1ccc2c(c1)CCN2C(C)=O` | 12.01% |
| 44 | `COc1ccc(-c2noc(C3(O)CCCC3)n2)cn1` | 73.6% |
| 45 | `CCS(=O)(=O)N(C)C(=O)CCc1c[nH]c2ccccc12` | 87.36% |
| 46 | `Cc1nc[nH]c1C(=O)NCC1CCN(CC(C)C)C1` (stereo not shown) | 4.923% |
| 47 | `CNC(=O)Nc1cc(Cl)cc2c1OCC2` | 13.17% |
| 48 | `OCCCN(CCO)Cc1c(Cl)ccc2cccnc12` | 2.478% |
| 49 | `Cn1nnnc1SCCC(=O)Nc1ccc(F)cc1` | 3.008% |
| 50 | `Cc1n[nH]cc1CNCC(O)COCC(C)C` (stereo not shown) | 37.24% |
| 51 | `CCCN(CCCN(C)C)C(=O)CCCOC` | 15.6% |
| 52 | `CC(NCCN1CCOCC1)C1CCOCC1` (stereo not shown) | 8.751% |
| 53 | `N#Cc1ccccc1N1CCCC(N)C1` (stereo not shown) | 63.65% |
| 54 | `O=C(C1CCOCC1)N1CCCC(c2ncc[nH]2)C1` (stereo not shown) | 3.628% |
| 55 | `Cc1cn(CC(=O)NCC[S+](C)[O-])c2ccccc12` (stereo not shown) | -17.42% |
| 56 | `Cc1nn(CCN(C)c2ccccc2)c(N)c1C#N` | 38.62% |
| 57 | `COCC(=O)Nc1ccc(-n2cccn2)nc1` | 3.82% |
| 58 | `CC(C)Cc1cc(C(=O)NC[C@@H]2C[C@H](F)CN2)on1` | 16.64% |
| 59 | `c1snnc1CNCC1COC2(CCCCC2)O1` (stereo not shown) | 56.32% |
| 60 | `CNS(=O)(=O)c1ccc(NC2CCC2)cc1OC` | -10.34% |
| 61 | `Cc1cccc(N2CCN(CCC(N)=O)CC2)c1` | 8.922% |
| 62 | `CC(C#N)CNC(=O)Cc1ccccc1O` (stereo not shown) | -3.71% |
| 63 | `CC1CS(=O)(=O)CCN1CC(=O)N(C)Cc1ccco1` (stereo not shown) | 7.459% |
| 64 | `CC(=O)c1ccc(OCCN(C)C)cc1` | 2.37% |
| 65 | `O=C1CCN(Cc2cc(Br)cc3c2OCC3)CCN1` | -15.88% |
| 66 | `O=C(CC1CCCC1)NCCN1C(=O)CCC1=O` | -6.691% |

For reference, 4 entries once more:

CCc1ccc(S(=O)(=O)N2CC[C@@H](N)C2)cc1CC read 52.4%.
COCc1nn(Cc2cccc3cccnc23)c(=O)o1 read 72.34%.
c1ccc(N2CCCN(c3ncccn3)CC2)nc1 read 1.62%.
CCN(CC)CCCNC(=O)c1ccccc1 read -9.281%.

From ChEMBL document CHEMBL3988442, “University of Dundee, Small-Polar-MMV Screening Library” (2021).